Compound potency records, mixed from different reports. Data source: NIAID ChemDB in PubChem.

All rows: tests in culture; species: Haemophilus influenzae; measure: MIC

Rows are shuffled and stem from different studies.

C=C1COC2[C@@H](C)C(=NC(C)=O)[C@H](C)C[C@@](C)(OC1)[C@H](O[C@@H]1O[C@H](C)C[C@H](N(C)C)[C@H]1O)[C@@H](C)C(=O)[C@@H](C)C(=O)O[C@H](CC)[C@@]2(C)O ; strain: 33929 (ampicillin-resistant) ; result: >64 µg/mL
CC[C@H]1OC(=O)[C@H](C)C(=O)[C@H](C)[C@@H](O[C@@H]2O[C@H](C)C[C@H](N(C)C)[C@H]2O)[C@@]2(C)C[C@@H](C)C(=NC(C)=O)[C@H](C)[C@@H](OC/C(=N/OCc3ccc(-c4cccc(N)n4)s3)CO2)[C@]1(C)O ; strain: 33929 (ampicillin-resistant) ; result: 16 µg/mL
C#CCOC[C@H]1/C=C(C)/C=C/C(=O)[C@H](C)CC(C=O)[C@H](O[C@@H]2O[C@H](C)[C@@H](O)[C@H](N(C)C)[C@H]2O)[C@@H](C)[C@H](O)CC(=O)O[C@@H]1CC ; strain: 33929 (ampicillin-resistant) ; result: 1 µg/mL
CC[C@H]1OC(=O)[C@H](C)C(=O)[C@H](C)[C@@H](O[C@@H]2O[C@H](C)C[C@H](N(C)C)[C@H]2O)[C@@]2(C)C[C@@H](C)C(=NC(C)=O)[C@H](C)[C@@H](OC/C(=N\OCc3ccc(-c4ncccn4)s3)CO2)[C@]1(C)O ; strain: 33929 (ampicillin-resistant) ; result: 8 µg/mL
CC[C@H]1OC(=O)[C@H](C)C(=O)[C@H](C)[C@@H](O[C@@H]2O[C@H](C)C[C@H](N(C)C)[C@H]2O)[C@@]2(C)C[C@@H](C)C(=NC(C)=O)[C@H](C)C(OC/C(=C\C#Cc3ccccc3)CO2)[C@]1(C)O ; strain: 33929 (ampicillin-resistant) ; result: 4 µg/mL
CC[C@H]1OC(=O)[C@H](C)C(=O)[C@H](C)[C@@H](O[C@@H]2O[C@H](C)C[C@H](N(C)C)[C@H]2O)[C@](C)(OC)C[C@@H](C)C2=NCCN3C(=O)O[C@@]1(C)[C@H]3[C@H]2C ; strain: DILL ; result: 4 µg/mL
CC[C@H]1OC(=O)[C@H](C)C(=O)[C@H](C)[C@@H](O[C@@H]2O[C@H](C)C[C@H](N(C)C)[C@H]2O)[C@@]2(C)C[C@@H](C)C(=NC(=O)CN)[C@H](C)C(OC/C(=C\C=C\c3ccccc3)CO2)[C@]1(C)O ; strain: 33929 (ampicillin-resistant) ; result: 64 µg/mL
CC[C@H]1OC(=O)[C@@](C)(F)C(=O)[C@H](C)[C@@H](O[C@@H]2O[C@H](C)C[C@H](N(C)C)[C@H]2O)[C@@]2(C)C[C@@H](C)C(=NC(C)=O)[C@H](C)[C@@H](OC/C(=N\OCc3ccc(-c4ncccn4)s3)CO2)[C@]1(C)O ; strain: 33929 (ampicillin-resistant) ; result: 8 µg/mL
CC[C@H]1OC(=O)[C@H](C)C(=O)[C@H](C)[C@@H](O[C@@H]2O[C@H](C)C[C@H](N(C)C)[C@H]2O)[C@@]2(C)C[C@@H](C)C(=NC(C)=O)[C@H](C)[C@@H](OC/C(=N\OCCCc3ccccc3)CO2)[C@]1(C)O ; strain: 33929 (ampicillin-resistant) ; result: 32 µg/mL
CC(=O)NC[C@H]1CN(c2ccc(-c3ccnn3C)c(F)c2)C(=O)O1 ; strain: UC 30063 ; result: 8 µg/mL
CC[C@H]1OC(=O)[C@@](C)(F)C(=O)[C@H](C)[C@@H](O[C@@H]2O[C@H](C)C[C@H](N(C)C)[C@H]2O)[C@@]2(C)C[C@@H](C)C(=NC(C)=O)[C@H](C)[C@@H](OC/C(=N\OCc3ccc(-c4cccc(N)n4)s3)CO2)[C@]1(C)O ; strain: 33929 (ampicillin-resistant) ; result: 4 µg/mL
CC[C@H]1OC(=O)[C@@](C)(F)C(=O)[C@H](C)[C@@H](O[C@@H]2O[C@H](C)C[C@H](N(C)C)[C@H]2O)[C@@]2(C)C[C@@H](C)C(=NC(C)=O)[C@H](C)[C@@H](OC/C(=N/OCc3ccc(-c4cccc(N)n4)s3)CO2)[C@]1(C)O ; strain: 33929 (ampicillin-resistant) ; result: 4 µg/mL
CC[C@H]1OC(=O)[C@H](C)C(=O)[C@H](C)[C@@H](O[C@@H]2O[C@H](C)C[C@H](N(C)C)[C@H]2O)[C@@]2(C)C[C@@H](C)C(=NC(C)=O)[C@H](C)C(OC/C(=C\C=C\c3ccccc3)CO2)[C@]1(C)O ; strain: 33929 (ampicillin-resistant) ; result: 8 µg/mL
CC(=O)NC[C@H]1CN(c2ccc(-c3noc(C(F)(F)F)n3)c(F)c2)C(=O)O1 ; strain: UC 30063 ; result: >16 µg/mL
CC[C@H]1OC(=O)[C@H](C)C(=O)[C@H](C)[C@@H](O[C@@H]2O[C@H](C)C[C@H](N(C)C)[C@H]2O)[C@@]2(C)C[C@@H](C)C(=NC(C)=O)[C@H](C)C(OC/C=C/CO2)[C@]1(C)O ; strain: 33929 (ampicillin-resistant) ; result: >64 µg/mL
CC[C@H]1OC(=O)[C@H](C)C(=O)[C@H](C)[C@@H](O[C@@H]2O[C@H](C)C[C@H](N(C)C)[C@H]2O)[C@@]2(C)C[C@@H](C)C(=NC(C)=O)[C@H](C)C(OC/C(=C\c3cnc4ccccc4c3)CO2)[C@]1(C)O ; strain: 33929 (ampicillin-resistant) ; result: 16 µg/mL
O=C(NC[C@H]1CN(c2ccc(C3CCS(=O)(=O)CC3)c(F)c2)C(=O)O1)C1CC1 ; strain: UC 30063 ; result: 16 µg/mL
CC(C)(C)[C@H](NC(=O)C(CC1CCCC1)CN(O)C=O)C(=O)N1CCN(Cc2nccs2)CC1 ; strain: Isolate 107022 ; result: 2 µg/mL
CC[C@H]1OC(=O)C[C@@H](O)[C@H](C)[C@@H](O[C@@H]2O[C@H](C)[C@@H](O)[C@H](N(C)C)[C@H]2O)C(C=O)C[C@@H](C)C(=O)/C=C/C(C)=C/[C@@H]1COCc1ccccc1 ; strain: 33929 (ampicillin-resistant) ; result: 0.5 µg/mL
CC(=O)NC[C@H]1CN(c2ccc(N3C[C@@H]4C(N)[C@@H]4C3)c(F)c2)C(=O)O1 ; strain: ATCC31517 ; result: 4 µg/mL
CC(=O)NC[C@H]1CN(c2ccc(-c3ccn[nH]3)c(F)c2)C(=O)O1 ; strain: UC 30063 ; result: 32 µg/mL
CC[C@H]1OC(=O)[C@H](C)C(=O)[C@H](C)[C@@H](O[C@@H]2O[C@H](C)C[C@H](N(C)C)[C@H]2O)[C@@]2(C)C[C@@H](C)C(=NC(C)=O)[C@H](C)[C@@H](OC/C(=N\Oc3ccc(-c4nnc(N)s4)cc3)CO2)[C@]1(C)O ; strain: 33929 (ampicillin-resistant) ; result: 4 µg/mL
CC[C@H]1OC(=O)C[C@@H](O)[C@H](C)[C@@H](O[C@@H]2O[C@H](C)[C@@H](O)[C@H](N(C)C)[C@H]2O)C(C=O)C[C@@H](C)C(=O)/C=C/C(C)=C/[C@@H]1COCOC ; strain: 33929 (ampicillin-resistant) ; result: 2 µg/mL
O=CN(O)CCCP(=O)(O)O ; strain: ATCC31517 ; result: 2 µg/mL
CC(=O)NC[C@H]1CN(c2cc(F)c(N3C[C@@H]4C(N)[C@@H]4C3)c(F)c2)C(=O)O1 ; strain: ATCC31517 ; result: 4 µg/mL
CCC(=O)N=C1[C@H](C)C[C@@]2(C)OC/C(=C/C=C/c3ccccc3)COC([C@H]1C)[C@](C)(O)[C@@H](CC)OC(=O)[C@H](C)C(=O)[C@H](C)[C@H]2O[C@@H]1O[C@H](C)C[C@H](N(C)C)[C@H]1O ; strain: 33929 (ampicillin-resistant) ; result: 32 µg/mL
CC[C@H]1OC(=O)[C@H](C)C(=O)[C@H](C)[C@@H](O[C@@H]2O[C@H](C)C[C@H](N(C)C)[C@H]2O)[C@@]2(C)C[C@@H](C)C(=NC(C)=O)[C@H](C)C(OC/C(=N\OCC#Cc3cccc(N)n3)CO2)[C@]1(C)O ; strain: 33929 (ampicillin-resistant) ; result: 4 µg/mL
CC[C@H]1OC(=O)[C@H](C)C(=O)[C@H](C)[C@@H](O[C@@H]2O[C@H](C)C[C@H](N(C)C)[C@H]2O)[C@@]2(C)C[C@@H](C)C(=NC(C)=O)[C@H](C)C(OC/C(=C\C#Cc3cccnc3)CO2)[C@]1(C)O ; strain: 33929 (ampicillin-resistant) ; result: 4 µg/mL
CC(=O)NC[C@H]1CN(c2ccc(-c3ccsc3)c(F)c2)C(=O)O1 ; strain: UC 30063 ; result: 8 µg/mL
CC[C@H]1OC(=O)[C@H](C)C(=O)[C@H](C)[C@@H](O[C@@H]2O[C@H](C)C[C@H](N(C)C)[C@H]2O)[C@@]2(C)C[C@@H](C)C(=NC(C)=O)[C@H](C)C(OC/C(=N/OCc3ccccc3)CO2)[C@]1(C)O ; strain: 33929 (ampicillin-resistant) ; result: >64 µg/mL
C=CC(=O)NC[C@H]1CN(c2ccc(C3CCS(=O)(=O)CC3)c(F)c2)C(=O)O1 ; strain: UC 30063 ; result: 2 µg/mL
CC[C@H]1OC(=O)C[C@@H](O)[C@H](C)[C@@H](O[C@@H]2O[C@H](C)[C@@H](O)[C@H](N(C)C)[C@H]2O)C(C=O)C[C@@H](C)C(=O)/C=C/C(C)=C/[C@@H]1COC(=O)Nc1ccccc1 ; strain: 33929 (ampicillin-resistant) ; result: 1 µg/mL
CC[C@H]1OC(=O)[C@H](C)C(=O)[C@H](C)[C@@H](O[C@@H]2O[C@H](C)C[C@H](N(C)C)[C@H]2O)[C@@]2(C)C[C@@H](C)C(=NC(C)=O)[C@H](C)[C@@H](OC/C(=N\OCC#Cc3ccc(N)nc3)CO2)[C@]1(C)O ; strain: 33929 (ampicillin-resistant) ; result: 4 µg/mL
CC[C@H]1OC(=O)[C@H](C)C(=O)[C@H](C)[C@@H](O[C@@H]2O[C@H](C)C[C@H](N(C)C)[C@H]2O)[C@@](C)(OCC2CC2c2cnc3ccccc3c2)C[C@@H](C)C(=O)[C@H](C)[C@H]2NC(=O)O[C@@]21C ; strain: DILL ; result: 4 µg/mL
CC[C@H]1OC(=O)[C@H](C)C(=O)[C@H](C)[C@@H](O[C@@H]2O[C@H](C)C[C@H](N(C)C)[C@H]2O)[C@@]2(C)C[C@@H](C)C(=NC(C)=O)[C@H](C)[C@@H](OC/C(=N\OCc3ccc(-c4cccc(N)n4)s3)CO2)[C@]1(C)O ; strain: 33929 (ampicillin-resistant) ; result: 4 µg/mL
CC[C@H]1OC(=O)[C@H](C)C(=O)[C@H](C)[C@@H](O[C@@H]2O[C@H](C)C[C@H](N(C)C)[C@H]2O)[C@@]2(C)C[C@@H](C)C(=NC(C)=O)[C@H](C)[C@@H](OC/C(=N\Oc3ccc(-n4cccn4)nc3)CO2)[C@]1(C)O ; strain: 33929 (ampicillin-resistant) ; result: 4 µg/mL

2 of the rows above, restated:

smiles,strain,result
CC[C@H]1OC(=O)[C@@](C)(F)C(=O)[C@H](C)[C@@H](O[C@@H]2O[C@H](C)C[C@H](N(C)C)[C@H]2O)[C@@]2(C)C[C@@H](C)C(=NC(C)=O)[C@H](C)[C@@H](OC/C(=N\OCc3ccc(-c4ncccn4)s3)CO2)[C@]1(C)O,33929 (ampicillin-resistant),8 µg/mL
CC[C@H]1OC(=O)[C@H](C)C(=O)[C@H](C)[C@@H](O[C@@H]2O[C@H](C)C[C@H](N(C)C)[C@H]2O)[C@@]2(C)C[C@@H](C)C(=NC(C)=O)[C@H](C)C(OC/C(=N/OCc3ccccc3)CO2)[C@]1(C)O,33929 (ampicillin-resistant),>64 µg/mL